# Test results as given in patent US20250049819A1, “METHODS FOR TREATING AND PREVENTING C. DIFFICILE INFECTION” (Paratek Pharmaceuticals, Inc., priority 2016, published 2025).
# Assay: Bioassay of antimicrobial concentration in gut model vessels (Example 3)
# Conditions: instillation 430 mg/L once daily for 7 days
compound,measurement,value
CN(C)c1cc(CNCC(C)(C)C)c(O)c2c1C[C@H]1C[C@H]3[C@H](N(C)C)C(O)=C(C(N)=O)C(=O)[C@@]3(O)C(O)=C1C2=O (stereo in doubt) [Omadacycline],"peak bioactive omadacycline concentration, vessel 1",~370 mg/L
same,"peak bioactive omadacycline concentration, vessel 2",~150 mg/L
same,"peak bioactive omadacycline concentration, vessel 3",~150 mg/L
